This is an account of results in ChEMBL document CHEMBL4118106 (J Med Chem, 2018).

The test concerns Middle East respiratory syndrome-related coronavirus. The test is described as follows: Potency index, ratio of HR2P-M2 EC50 to test compound EC50 for inhibition of EGFP-fused MERS-CoV spike protein mediated cell-cell fusion between viral protein expressing human 293T cells and human HuH7 target cells.

SMILES strings stand for the structures.

As to `CSCC[C@H](NC(=O)[C@H](CCC(=O)O)NC(=O)[C@H](Cc1ccc(O)cc1)NC(=O)[C@@H](NC(=O)[C@H](CC(C)C)NC(=O)[C@H](CC(=O)O)NC(=O)[C@H](CC(C)C)NC(C)=O)[C@@H](C)O)C(=O)N[C@@H](CC(C)C)C(=O)N[C@@H](CO)C(=O)N[C@@H](CC(C)C)C(=O)N[C@@H](CCC(N)=O)C(=O)N[C@@]1(C)CCC/C=C\CCC[C@@](C)(C(=O)N[C@@H](CC(C)C)C(=O)N[C@@H](CC(N)=O)C(=O)N[C@@H](CCC(=O)O)C(=O)N[C@@H](CO)C(=O)N[C@@H](Cc2ccc(O)cc2)C(N)=O)NC(=O)[C@H](CCCCN)NC(=O)[C@H](C(C)C)NC(=O)[C@H](C(C)C)NC1=O`, the Ratio EC50 is 2.8.
